Pooled drug test results. Numbers come from NIAID ChemDB, via PubChem.

All rows: host cell toxicity; cells: HeLa; read-out: CC50

Rows are shuffled and stem from different studies.

smiles | result
CCn1nc(CC(=O)N/N=C/c2ccco2)nc1C | >400 µg/mL
CSc1noc(-c2ccc(OCCc3ccccc3)cc2)c1C#N | >20 µM
O=C(CCCCOc1c(Cl)cc(C2=NCCO2)cc1Cl)c1ccc(Cl)cc1 | 35 µM
CNS(=O)(=O)c1cccc(-c2cc(=O)n(O)c3ncccc23)c1 | <100 µM
CCOC(=O)c1ccc(OCCCCC(=O)c2cc(C=O)n(C)c2)cc1 | 56 µM
Nc1nc(N)nc(OC[C@H]2CC[C@@H](COc3nc(N)nc(N)n3)O2)n1 | >250 µM
COc1ccc(-c2cc(N(C)C)no2)c(O)c1 | >427 µM
CS(=O)(=O)c1ccc(Cc2ccc(Sc3ccccc3)cc2)nc1 | 2.5 µg/mL
Nc1ccnc(OC[C@H]2CC[C@@H](COCc3ccccc3)O2)n1 | ≥250 µM
O=c1cc(-c2ccccc2)c2cccnc2n1O | <100 µM
N#Cc1cc(C#N)c2[nH]c3ccccc3n2c1=O | 38 µg/mL
Nc1ncnc2c1ncn2[C@@H]1O[C@H](CCl)C[C@H]1O | 200 µg/mL
NCc1cccc(-c2cncc(-c3cc(=O)n(O)c4ncccc34)c2)c1 | <100 µM
CCc1nc(CC(=O)NN=C(C)C)nn1CC | >400 µg/mL
CCOC(=O)C(N)CCSC[C@H]1O[C@@H](n2ccc3c(N)ncnc32)[C@H](O)[C@@H]1O | 100 µg/mL
O=C(Oc1c(-c2ccc(Cl)cc2)oc2ccccc2c1=O)c1cc(OCc2ccccc2)c(OCc2ccccc2)c(OCc2ccccc2)c1 | 1.36 µM
CCn1nc(CC(=O)NN=C(C)C)nc1C | >400 µg/mL
Cc1cc(C(=O)CCCCOc2ccc(C3=NCCO3)cc2)c(C)[nH]1 | 205 µM
C/C(=C\CC/C(C)=C/Cc1cc(O)cc(C)c1O)CC/C=C(\C)CC[C@@H](C)C(C)(C)O | 8.2 µM
COc1cc(C(=O)Oc2c(-c3ccc(Cl)cc3)oc3ccccc3c2=O)cc(OC)c1OC(C)=O | 1.02 µM
CSc1ccc(C(=O)CCCCOc2ccc(C3=NCCO3)cc2)cc1 | >271 µM
CC(C)(C)C(=O)OCn1nc([C@@H]2O[C@H](CO)C[C@H]2O)c2ncnc(N)c21 | 200 µg/mL
CCOC(=O)c1ccc(OCCCCC(=O)c2ccc(OC)cc2)cc1 | >281 µM
CN(C)c1ccc(Cc2ccc(S(C)(=O)=O)cn2)cc1 | >10 µg/mL
COc1ccc(-c2cc(N3CCCCC3)no2)c(O)c1 | >364 µM
Cc1ccsc1C(=O)CCCCOc1ccc(C(=O)O)cc1 | >314 µM
CCOC(=O)c1cc(Cl)c(OCCCCC(=O)c2ccc(OC)cc2)c(Cl)c1 | 40 µM
N#Cc1cc(NC(=O)c2ccccc2)c(=O)n2c1[nH]c1ccccc12 | 4.8 µg/mL
Nc1cc(OC[C@H]2CC[C@@H](COCc3ccccc3)O2)ncn1 | 208 µM
O=c1cc(N2CCCC(CN3CCOCC3)C2)c2cccnc2n1O | <100 µM
CCCCOC(=O)C(N)CCSC[C@H]1O[C@@H](n2ccc3c(N)ncnc32)[C@H](O)[C@@H]1O | 100 µg/mL
Nc1cc(OCC2O[C@H](COCc3ccccc3)[C@@H](OCc3ccccc3)[C@H]2OCc2ccccc2)nc(N)n1 | 22 µM
CC(=O)Oc1ccc(/C=C/C(=O)Oc2c(-c3ccc(Cl)cc3)oc3ccccc3c2=O)cc1OC(C)=O | 1.91 µM
Cc1ccc(C(=O)CCCCOc2ccc(C3=NCCO3)cc2)s1 | 146 µM
N#Cc1ccc(OCCCCC(=O)c2ccccc2)cc1 | >267 µM
COc1cc(C(=O)Oc2c(-c3ccc(Cl)cc3)oc3ccccc3c2=O)ccc1O | 0.49 µM
CCOc1cc(OC)ccc1-c1cc(N(CC)CC)no1 | 90 µM
Nc1nc(OC[C@H]2CC[C@@H](CO)O2)c2[nH]cnc2n1 | >250 µM
Nc1nccc2c1ncn2[C@@H]1O[C@H](CSCCC(N)C(=O)O)C[C@H]1O | >400 µg/mL
CC(=O)Oc1ccc(/C=C/C(=O)Oc2c(-c3ccc(Cl)c(Cl)c3)oc3ccccc3c2=O)cc1OC(C)=O | 0.86 µM
Cc1nc(Cc2n[nH]c(=S)n2-c2ccccc2)nn1C | 400 µg/mL
CCOc1ccc(-c2cc(N(CC)CC)no2)c(O)c1 | >362 µM
O=c1c(-c2ccccc2)c(O)c2cc(-c3ccc4ccccc4c3)cnc2n1O | <100 µM
COc1cc(/C=C/C(=O)Oc2c(-c3ccc(Cl)c(Cl)c3)oc3ccccc3c2=O)ccc1O | 1.29 µM
CS(=O)(=O)c1ccc(NCCc2ccc(Cl)c(Cl)c2)nc1 | >10 µg/mL
c1ccc(COC[C@@H]2CC[C@H](COc3ncnc4nc[nH]c34)O2)cc1 | 220 µM
CCOc1ccc(-c2onc(N(CC)CC)c2Cc2c(N(CC)CC)noc2-c2ccc(O)cc2O)c(O)c1 | 17 µM
Nc1nccc2c1ncn2[C@@H]1O[C@H](CO)C[C@H]1O | 40 µg/mL
Nc1nccc(OC[C@H]2CC[C@@H](CO)O2)n1 | >250 µM
CSc1ccc(Cc2ccc(S(C)(=O)=O)cn2)cc1 | >10 µg/mL
CSc1noc(-c2ccc(OCCCCOc3ccccc3)cc2)c1C#N | 10 µM
CCOC(=O)c1ccc(OCCCCC(=O)c2ccc(Cl)cc2)cc1 | >277 µM
CSc1noc(-c2ccc(OCCOc3ccc(C)cc3)cc2)c1C#N | >25 µM
CCOC(=O)N1CCC(Nc2cc(=O)n(O)c3ncccc23)CC1 | <100 µM
O=C(CCCCOc1ccc(C2=NCCO2)cc1)c1cc[nH]c1 | >320 µM
CCOC(=O)c1c(O)c2cc(-c3cccnc3)cnc2n(O)c1=O | <100 µM
COc1cc(C(=O)Oc2c(-c3ccc(Cl)c(Cl)c3)oc3ccccc3c2=O)ccc1O | 3.76 µM

Again, the opening 5 rows:

smiles | result
CCn1nc(CC(=O)N/N=C/c2ccco2)nc1C | >400 µg/mL
CSc1noc(-c2ccc(OCCc3ccccc3)cc2)c1C#N | >20 µM
O=C(CCCCOc1c(Cl)cc(C2=NCCO2)cc1Cl)c1ccc(Cl)cc1 | 35 µM
CNS(=O)(=O)c1cccc(-c2cc(=O)n(O)c3ncccc23)c1 | <100 µM
CCOC(=O)c1ccc(OCCCCC(=O)c2cc(C=O)n(C)c2)cc1 | 56 µM

CCn is the concentration with n% toxicity to the cells.